Measurements published in patent US20090221624A1, “4-AMINOQUINOLINE COMPOUNDS FOR TREATING VIRUS-RELATED CONDITIONS” (priority 2005, published 2009).

Columns and labels:
DNG (D2-hRuPac cells) = assay: DNG antiviral activity, D2-hRuPac cells, Renilla luciferase; assay type: cell-based, Dengue fever virus; conditions: therapeutic index CC50/EC50, DNG
EBOV minigenome = assay type: cell-based, Ebola virus; conditions: ratio CC50 / EC50
SINV (SR19-F-luc cells) = assay: SINV antiviral activity, SR19-F-luc cells, Firefly luciferase; assay type: cell-based, Sindbis virus; conditions: therapeutic index CC50/EC50, SINV

| SMILES | DNG TI (DNG (D2-hRuPac cells)) | EBOV TI (EBOV minigenome) | SINV TI (SINV (SR19-F-luc cells)) |
| --- | --- | --- | --- |
| CCOC(=O)c1cnc2c(ccc3ccccc32)c1NCc1ccco1 [Compound 37] | 1.63 | 0.55 | 0.55 |
| c1cncc(CNc2c3ccccc3nc3ccccc23)c1 [Compound 5] | 7.84 | 1.87 | 4.07 |
| Cc1cccc(Nc2c3c(nc4ccccc24)CCC3)c1 [Compound 11] | – | 1.11 | 10.27 |
| CCOc1ccc2nc(C)cc(Nc3ccc(OC)c(OC)c3)c2c1 [Compound 56] | 3.28 | 0.59 | 11.95 |
| CCOc1ccc2nc(C)cc(Nc3ccc(Br)cc3)c2c1 [Compound 41] | 3.64 | 0.38 | 9.72 |
| CCCOC(=O)c1ccc(Nc2cc(C)nc3ccc(C(=O)OCC)cc23)cc1 [Compound 63] | 1.57 | 7.77 | 0.93 |
| CCOC(=O)c1cnc2c(OC)cccc2c1NCc1ccco1 [Compound 67] | – | 1.49 | – |
| CCc1ccccc1Nc1c2ccccc2nc2ccccc12 [Compound 2] | 1.55 | 0.85 | 1.71 |
| CC(=O)c1cccc(Nc2cc(C)nc3c(C)cc(C)cc23)c1 [Compound 48] | 2.44 | 0.97 | 10.36 |
| COc1ccc(Nc2cc(C)nc3c2ccc2ccccc23)cc1 [Compound 7] | 4.41 | 6.94 | 1 |
| CCOC(=O)c1cnc2ccc(OC)cc2c1NCc1ccco1 [Compound 29] | 2.97 | 2.53 | 0.51 |
| CCOc1ccc2nc(C)cc(Nc3ccc(Cl)cc3)c2c1 [Compound 59] | – | 6.56 | – |
| CCOC(=O)c1ccc2ncc(C(=O)OCC)c(NCCCOC(=O)C(Cl)(Cl)Cl)c2c1 [Compound 64] | 14.44 | 3.9 | 1.77 |
| Cc1ccc2nc(C)cc(Nc3ccccc3)c2c1 [Compound 3] | 1.53 | 0.8 | 40.56 |
| CCOC(=O)c1cnc2c(OC)cccc2c1NC(C)c1ccccc1 (stereo not shown) [Compound 71] | 1.33 | 1.67 | 8.93 |
| CCOC(=O)c1cnc2c(C)cc(C)cc2c1NCc1ccco1 [Compound 35] | 3.35 | 5.6 | 0.5 |
| Cc1ccc2nc3c(c(Nc4ccc(O)cc4)c2c1)CCC3 [Compound 16] | 3.62 | 1.14 | 22.46 |
| CCOC(=O)c1cnc2ccc(F)cc2c1NCCCN(C)C [Compound 66] | 1.26 | 4.58 | 6.78 |
| Cc1cc(NNC(=O)OCc2ccccc2)c2ccccc2n1 [Compound 78] | 0.9 | 0.68 | 6.78 |
| COc1ccc(Nc2cc(C)nc3ccccc23)cc1 [Compound 20] | 1.79 | 1.5 | 17.52 |

| SMILES | DNG TI (DNG (D2-hRuPac cells)) | EBOV TI (EBOV minigenome) | SINV TI (SINV (SR19-F-luc cells)) |
| --- | --- | --- | --- |
| C=CCNc1c2c(nc3ccccc13)CCC2 [Compound 12] | 1.04 | 1.58 | 10.4 |
| Cc1ccc2nc(C)cc(NCc3ccccc3)c2c1 [Compound 18] | 1.79 | – | 3.68 |
| CCOC(=O)c1cnc2ccc(C)cc2c1NCc1ccco1 [Compound 39] | 3.8 | 3.73 | 0.36 |
| COC(=O)c1ccc(Nc2cc(C)nc3cc(Cl)ccc23)cc1 [Compound 14] | 0.99 | 0.82 | 3.05 |
| Cc1cc(Nc2cccc(Cl)c2C)c2cccc(C)c2n1 [Compound 65] | 1 | 1.54 | 1 |
| CCOC(=O)c1cnc2ccccc2c1NCc1ccco1 [Compound 30] | 4.61 | 4.39 | 0.74 |
| COc1ccc2nc(C)cc(Nc3ccc(OCc4ccccc4Cl)cc3)c2c1 [Compound 43] | 15.79 | 0.35 | 6.38 |
| CC(=O)c1cccc(Nc2cc(C)nc3ccccc23)c1 [Compound 17] | 1 | 1 | 19.58 |
| CCOC(=O)c1cnc2c(Cl)cc(Cl)cc2c1NCc1ccco1 [Compound 52] | 2.79 | 3.34 | 1.78 |
| COC(=O)c1ccc(Nc2cc(C)nc3c(C)cccc23)cc1 [Compound 61] | 3.27 | 0.65 | 2.65 |
| Cc1cc(C)c2nc(C)cc(Nc3ccc(OCc4ccccc4)cc3)c2c1 [Compound 44] | 8.08 | 0.37 | 7.67 |
| CCOc1ccc2nc(C)cc(Nc3ccc(C)c(Cl)c3)c2c1 [Compound 45] | 5.03 | 0.34 | 7.84 |
| CCOC(=O)c1cnc2c(Cl)c(Cl)ccc2c1NCc1ccco1 [Compound 19] | – | 0.28 | – |
| Cc1cc(Nc2ccc(C)c(C)c2)c2cc(Cl)ccc2n1 [Compound 47] | 1.42 | 0.75 | 7.75 |
| Cc1ccc(Nc2cc(C)nc3ccc(C)cc23)cc1 [Compound 6] | – | – | 15.3 |
| CCOC(=O)c1cnc2c(OC)cccc2c1NCc1ccccc1 [Compound 62] | – | 0.58 | – |
| COc1ccccc1Nc1cc(C)nc2c(C)c(C)cc(N)c12 [Compound 77] | – | 0.7 | – |
| CCOC(=O)c1cnc2c(OC)cccc2c1NCCCO [Compound 70] | – | 0.66 | – |
| Cc1ccc(Nc2c3c(nc4ccc(C)cc24)CCC3)cc1 [Compound 28] | – | – | 16.04 |
| CCOC(=O)c1cnc2c(OC)cccc2c1NCc1cccnc1 [Compound 68] | – | 0.74 | – |
